Experimental data: ChEMBL document CHEMBL3414532 (J Med Chem, 2015)

Assays:
[1] = molecular target: T1, Human immunodeficiency virus type 1 reverse transcriptase (Human immunodeficiency virus 1, UniProt Q72547, Y181C); assay: Inhibition of HIV1 reverse transcriptase Y181C mutant polymerase activity using [3H]TTP and poly(rA)-oligo(dT)16 substrate incubated for 20 mins by liquid scintillation spectrometry
How it was run: (§1)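 HIV RT (WT or NNRTI-resistant mutant, 10 nM) added to start reaction with 10 μM [3H]-TTP and 40 nM poly(rA)-oligo(dT)16 in 50 mM Tris-HCl pH 7.4, 60 mM KCl, 5 mM MgCl2; 20 min at 37 °C. Quenched with ice-cold 10% TCA/20 mM sodium pyrophosphate, glass-fiber filtered, washed with TCA and ethanol; incorporation counted by scintillation. IC50 as mean ± SD, ≥3 independent experiments.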

[2] = molecular target: T2, Human immunodeficiency virus type 1 reverse transcriptase (Human immunodeficiency virus 1, UniProt Q72547, K103N/L100I); assay: Inhibition of HIV1 reverse transcriptase L100I/K103N mutant polymerase activity using [3H]TTP and poly(rA)-oligo(dT)16 substrate incubated for 20 mins by liquid scintillation spectrometry; how it was run: as §1
[3] = molecular target: T2, Human immunodeficiency virus type 1 reverse transcriptase; assay: Inhibition of HIV1 reverse transcriptase L100I/K103N mutant associated RNase H domain activity assessed as reduction in internal cleavage using HTS-1 RNA/DNA duplex substrate by fluorescence assay
[4] = molecular target: T1, Human immunodeficiency virus type 1 reverse transcriptase; assay: Inhibition of HIV1 reverse transcriptase Y181C mutant associated RNase H domain activity assessed as reduction in reduction in DNA 3' end directed cleavage using HTS-1 RNA/DNA duplex substrate by fluorescence assay
[5] = molecular target: T1, Human immunodeficiency virus type 1 reverse transcriptase; assay: Inhibition of HIV1 reverse transcriptase Y181C mutant associated RNase H domain activity assessed as reduction in internal cleavage using HTS-1 RNA/DNA duplex substrate by fluorescence assay
[6] = molecular target: T2, Human immunodeficiency virus type 1 reverse transcriptase; assay: Inhibition of HIV1 reverse transcriptase L100I/K103N mutant associated RNase H domain activity assessed as reduction in reduction in DNA 3' end directed cleavage using HTS-1 RNA/DNA duplex substrate by fluorescence assay

Row | SMILES | IC50 [1] | IC50 [2] | IC50 [3] | IC50 [4] | IC50 [5] | IC50 [6]
1 | O=C1Cc2cc(Cc3ccc(-c4ccc(F)cc4)cc3)ccc2C(=O)N1O | 1700 nM | 1500 nM | 2500 nM | 7200 nM | 4700 nM | 2500 nM
2 | COc1ccc(-c2ccc(Cc3ccc4c(c3)CC(=O)N(O)C4=O)cc2)cc1 | 1700 nM | 1000 nM | 1300 nM | 3900 nM | 3800 nM | 1900 nM
3 | N#Cc1ccc(-c2ccc(Cc3ccc4c(c3)CC(=O)N(O)C4=O)cc2)cc1 | 800 nM | 300 nM | 900 nM | 1800 nM | 1300 nM | 800 nM
4 | O=C1Cc2cc(Cc3ccc(Cl)cc3)ccc2C(=O)N1O | 5300 nM | 5100 nM | 8200 nM | 9000 nM | 7000 nM | 8700 nM
5 | O=C1Cc2cc(Cc3ccc(-c4ccccc4)cc3)ccc2C(=O)N1O | 700 nM | 500 nM | 700 nM | 1100 nM | 900 nM | 1000 nM
6 | CS(=O)(=O)c1ccc(-c2ccc(Cc3ccc4c(c3)CC(=O)N(O)C4=O)cc2)cc1 | 700 nM | 500 nM | 1200 nM | 1400 nM | 800 nM | 1400 nM
